Anti-infective test results gathered from many reports (values: NIAID ChemDB through PubChem).

Common to all: tests on isolated targets; agent: Hepatitis C virus; protein: Nonstructural protein 5B

Fold resistance has wild type as its base. Two numbers with a dash give a range or band. Percent inhibition refers to the dose given; in toxicity tests it is the harm to the cells. Conditions beyond the fields shown may differ between rows. ICn: concentration for n% inhibition. An empty or dashed field is not shown.

smiles | mutations | tested at | endpoint | method | strain | result
CSc1nc(Nc2ccc(N3CCOCC3)cc2)cc(N2CCN(CC(=O)N3CCC(N4CCOCC4)CC3)CC2)n1 | - | 1 µg/mL | inhibition | - | - | 69%
O=C(O)c1ccc(N2C(=O)C(=Cc3ccc(-c4ncc(C(F)(F)F)cc4Cl)o3)SC2=S)cc1 | - | - | IC50 | - | - | ≤1 µM
CSc1nc(Nc2ccc(N3CCOCC3)cc2)cc(N2CCN(CC(=O)NCCN(C)C)CC2)n1 | - | 1 µg/mL | inhibition | - | - | 73%
CCOC(=O)c1cnc(SC2=C(O)CC(CCc3cc(Cl)c(OC)cc3OC)(C3CCCC3)OC2=O)[nH]1 | - | - | IC50 | - | - | <1 µM
CCNC(=O)CN1CCN(c2cc(Nc3ccc(N4CCOCC4)cc3)nc(SC)n2)CC1 | - | 1 µg/mL | inhibition | - | - | 61%
CNC(=O)c1c(-c2ccc(F)cc2)oc2cc(N(C)S(C)(=O)=O)c(OCc3ccccc3C(=O)OC)cc12 | - | - | IC50 | - | - | ≤0.5 µM
O=C(O)c1ccc(N2C(=O)C(=Cc3ccc(-c4cc(Cl)cc(Cl)c4)o3)SC2=S)cc1 | - | - | IC50 | - | - | ≤1 µM
COc1nc(Nc2ccc3[nH]ncc3c2)nc(N2CCC(C(N)=O)CC2)n1 | - | 10 µg/mL | inhibition | - | - | 85%
O=C(O)c1ccc(-n2c(O)c(C=c3ccc(=C4N=C(Cl)C(Cl)=N4)o3)sc2=S)cc1 | - | - | IC50 | - | - | ≤1 µM
CSc1nc(Nc2ccc(N3CCOCC3)cc2)cc(N2CCN(CC(=O)NC(C)C)CC2)n1 | - | 1 µg/mL | inhibition | - | - | 65%
COc1ccc(CCC2(C3CCCC3)CC(O)=C(Sc3nc(C)c(CC(=O)O)s3)C(=O)O2)cc1 | - | - | IC50 | - | - | <1 µM
O=C(NCCc1ccncc1)c1ccc(S(=O)(=O)Nc2ccc(N3CCOCC3)cc2)cc1 | - | 0.1 µg/mL | inhibition | - | - | 39%
CCOC(=O)N1CCN(c2nc(Nc3ccc4[nH]ncc4c3)nc(OC)n2)CC1 | - | 0.1 µg/mL | inhibition | - | - | 0%
COc1ccc(CCC2(C3CCCC3)CC(O)=C(Sc3n[nH]c(N)n3)C(=O)O2)cc1 | - | - | IC50 | - | - | 1–10 µM
COc1nc(NCCc2ccccn2)nc(Nc2ccc3[nH]ncc3c2)n1 | - | 0.1 µg/mL | inhibition | - | - | 19%
CNC(=O)c1c(-c2ccc(F)cc2)oc2cc(C3CNC(=O)C3C(=O)NC)c(OC)cc12 | - | - | IC50 | - | - | ≤0.5 µM
COCCNc1nc(Nc2ccc3[nH]ncc3c2)nc(OC)n1 | - | 10 µg/mL | inhibition | - | - | 90%
O=Cc1ccc(C=C2SC(=S)N(c3ccc(C(=O)O)cc3)C2=O)o1 | - | - | IC50 | - | - | ≤1 µM
CNC(=O)c1c(-c2ccc(F)cc2)oc2cc(-c3cc(COC(C)C)on3)c(OC)cc12 | - | - | IC50 | - | - | ≤0.5 µM
CCCc1ccc(-c2ccc(C=C3SC(=S)N(CCC(=O)O)C3=O)o2)s1 | - | - | IC50 | - | - | ≤1 µM
C[C@@]1(O)[C@H](O)[C@@H](COP(=O)([O-])OP(=O)([O-])OP(=O)([O-])O)O[C@H]1n1cnc2c(N)nc(N)nc21 | S282T | - | fold resistance | nucleotide incorporation | GT1b | 10
COc1nc(NCCc2c[nH]c3ccccc23)nc(Nc2ccc3cn[nH]c3c2)n1 | - | 10 µg/mL | inhibition | - | - | 52%
COc1ccc(CCC2(C3CCCC3)CC(O)=C(Sc3nc4nc(C)cc(C)[n+]4[nH]3)C(=O)O2)cc1Cl | - | - | IC50 | - | - | <1 µM
COc1nc(NCCCN2CCOCC2)nc(Nc2ccc3[nH]ncc3c2)n1 | - | 1 µg/mL | inhibition | - | - | 31%
CSc1nc(Nc2ccc(N3CCOCC3)cc2)cc(N2CCN(CC(=O)N3CCC(N)CC3)CC2)n1 | - | 1 µg/mL | inhibition | - | - | 75%
CNC(=O)c1c(-c2ccc(F)cc2)oc2cc(CN3CC(O)=C(C#N)C3=O)c(OC)cc12 | - | - | IC50 | - | - | ≤0.5 µM
CC(=O)c1ccc(CCC2(C3CCCC3)CC(=O)CC(=O)O2)cc1 | - | - | IC50 | - | - | 1–10 µM
Cc1c(-c2ccc(C=C3SC(=S)N(c4ccc(C(=O)O)cc4)C3=O)o2)sc2ccc(Cl)cc12 | - | - | IC50 | - | - | ≤1 µM
CSc1nc(Nc2ccc(N3CCOCC3)cc2)cc(N2CCN(CC(=O)N(C)CCN(C)C)CC2)n1 | - | 1 µg/mL | inhibition | - | - | 70%
CCCN(C1=C(O)CC(C2CCCC2)(C2CCCC2)OC1=O)c1cccc(NS(=O)(=O)c2cccs2)c1 | - | - | IC50 | - | - | 10–50 µM
CNC(=O)c1c(-c2ccc(F)cc2)oc2cc(N3CCOCC3)c(OCc3cscn3)cc12 | - | - | IC50 | - | - | ≤0.5 µM
COc1nc(Nc2ccc3cn[nH]c3c2)nc(N2CCOCC2)n1 | - | 0.1 µg/mL | inhibition | - | - | 30%

A second listing of 2 rows from above:

| smiles | mutations | tested at | endpoint | method | strain | result |
|---|---|---|---|---|---|---|
| CSc1nc(Nc2ccc(N3CCOCC3)cc2)cc(N2CCN(CC(=O)N3CCC(N4CCOCC4)CC3)CC2)n1 | - | 1 µg/mL | inhibition | - | - | 69% |
| CCOC(=O)N1CCN(c2nc(Nc3ccc4[nH]ncc4c3)nc(OC)n2)CC1 | - | 0.1 µg/mL | inhibition | - | - | 0% |